Target: Gp41-HR1 (HIV-1)
Assay: SPR

**Q.** Which results are given for HK20 IgG (antibody)?
**A.** Kd: 3.3 nM; koff: 0.000727 s⁻¹; kon: 220000 M⁻¹ s⁻¹

— PMC2987821
